## Primary screen of a compound library

Source: ChEMBL document CHEMBL3988442, “University of Dundee, Small-Polar-MMV Screening Library” (2021).

Mtb glucose medium: 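Growth of Mycobacterium tuberculosis over 3 days (7H9 medium with glucose and tyloxapol); the read-out is not stated. Tested at 500 µM. Higher reads as more growth inhibition (inferred: compounds with an IC50 in retests scored well above the rest). Of about 18,000 compounds tested this way, about 1,400 (7.9%) reached 50% or more in at least one test.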
Mtb cholesterol medium: 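Whole-cell growth test on Mycobacterium tuberculosis, read after 4 days in a medium based on cholesterol and the lipid DPPC; the read-out is not stated. Concentration: 500 µM. Higher reads as more growth inhibition (inferred: compounds with an IC50 in retests scored well above the rest). About 18,000 compounds were tested under these conditions; 5% (about 900) showed 50% or more at least once.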

Results are given as percent effect. The record does not define 0% and 100%; most values in the screen are far below 50% and negative numbers occur (in some assays of this library far below -100). Many other results are left out here, so strong results are more common than in the screen. A dash means the value is not listed here; it may have been measured.

SMILES	Mtb glucose medium	Mtb cholesterol medium
COc1ncccc1CNC(=O)N1CCCN(C)CC1	-	1.398
CCN1CCCC1CNC(=O)c1ccccc1F (centres unmarked)	2.57	-
O=C(N1CCNCC1)C1(c2ccc(F)cc2F)CCC1	4.341	-
CNS(=O)(=O)C1CCCN(c2ncc(Br)cc2C)C1 (centres unmarked)	2.266	-
CCNC(=O)c1cc2ccc(OC)cc2[nH]1	53.23	-
CN1CCN(Cc2ccncc2)C2(CCCCC2)C1	-7.075	-
NCc1ccc2c(c1)OCCCO2	30.1	23.4
COCCN1CCC(CNC(=O)N2CCC(C)CC2)C1 (centres unmarked)	57.15	64.62
c1cc(SCCOCC2CCCO2)ccn1 (centres unmarked)	28.9	-
Cc1c[nH]c(CN(C)C(=O)c2cc(C(F)F)n[nH]2)n1	22.77	-
CC(CN1CCOCC1)NC(=O)c1csc(Br)c1 (centres unmarked)	51.59	-
CN(C)c1cc(CNC(=O)c2ccccc2F)ccn1	38.77	-
Cc1cccc2[nH]c(CNC(=O)CNC(N)=O)nc12	0.9946	-
C[C@@H](N)C(=O)N(Cc1ccccc1F)C1CCC1	19.59	-
O=C(CNC(=O)N1CCC1)Nc1ccc(F)c(F)c1	30.41	-
Cc1cc(NC(=O)Cn2cc(Br)ccc2=O)no1	-	-7.706
CN(CCn1cccn1)c1cc(Br)ccn1	59.48	48.88
CNc1ncccc1N	-	-252.9
CCNC(=O)CNC(=O)C(C)(O)CCc1ccccc1 (centres unmarked)	28.73	-
O=C(NCC1CCCO1)c1cc(-c2cccs2)on1 (centres unmarked)	68.06	71.91
CC(C)OCC1CCN(C(=O)c2cccc(=O)[nH]2)CC1	-	4.71
COCC(C)NC(=O)NCc1ccc(F)cc1 (centres unmarked)	19.02	-
CN(C)c1nccc(N(C)CCn2cccn2)n1	2.626	-
COCc1ccccc1C(=O)N1CCCC(O)C1 (centres unmarked)	-13.2	-
NCCc1cccs1	-1.023	-14.01
Cc1cc(CNC(=O)CSc2ccncc2)on1	8.87	-
Cc1cccnc1CN(C)Cc1nccn1C	32.99	-
CC(Cn1cccn1)NC(=O)CN1CCOC1=O (centres unmarked)	-14.51	-
CN(CCCS(=O)(=O)N(C)C)Cc1nc(C2CC2)no1	35.34	-
COc1ccc(-c2[nH][nH]c(=O)c2CCN)cc1	-3.114	-
c1ccc(CC2CCNCC2)nc1	-16.32	-
CC(Sc1nc2ncccn2n1)C(=O)NC1CC1 (centres unmarked)	-2.022	-
CC(CO)N1CCCN(c2cccc(C#N)n2)CC1 (centres unmarked)	-	-2.616
CN1CCCN(C(=O)Nc2ccc(Cl)cc2)CC1	-	7.595
Cc1ccc(C2CCCN2S(=O)(=O)N2CCOCC2)o1 (centres unmarked)	-	-25.89
Nc1nc(NCCc2c[nH]cn2)cc(C2CC(N)C2)n1 (centres unmarked)	-	16.5
CCN1CCN(C(C)CNC(=O)c2scnc2C)CC1 (centres unmarked)	7.653	-
Cl.Cl.N[C@@H]1CCN(c2cccnc2)C1	23.49	10.88
CCOC(=O)c1ccc(CN2CCOCC2)cn1	-	56.84
CC(C)[C@@H]1CCO[C@@H]1CN	8.198	-
CC(O)CC(C)(C)CN (centres unmarked)	0.6126	-
CC(C)N(CCCNC(=O)c1ccoc1)S(C)(=O)=O	20.22	-
CC(NC(=O)c1ccc(C(C)(C)C)cc1)C(N)=O (centres unmarked)	4.764	-2.897
CN(C)C(=O)OC1CCNC1 (centres unmarked)	2.913	-
CC1C(=O)NCCN1C(=O)c1ccc(F)c(C#N)c1 (centres unmarked)	-8.115	-
NC(=O)c1cccc2[nH]ccc12	-7.052	-
O=C(Cc1ccccc1F)NCCNc1ncccn1	-	-0.01274
NCc1ccncc1OCCC(F)(F)F	-	-5.605
C[C@@H](C(=O)NCc1cccc(Cl)c1)n1cnnn1	18.61	13.19
CCc1ccc(C(=O)NC2CCS(=O)(=O)C2)o1 (centres unmarked)	20.2	-
CC(NS(=O)(=O)c1cnn(C)c1)c1ccncc1 (centres unmarked)	-29.19	-
COC[C@H]1CC[C@H]1N	8.302	-
O=S(=O)(CC1CCCC1)N1CCCC(CO)C1 (centres unmarked)	25.72	-
COc1cccc(C2=NN=C(NC3CC3)SC2)c1	79.76	84.07
CCSC1CCCCN(CCCNC(C)=O)C1 (centres unmarked)	12.65	-
Cc1cccc2c1N(C(=O)CCc1nnc[nH]1)CC2	-1.464	-
CC(=O)NCCNC(=O)COc1c(C)cccc1C	-	-3.445
Cn1cc(C(N)C2(CO)CCC2)cn1 (centres unmarked)	7.738	-
CN(C)CCOC1CCCNC1 (centres unmarked)	-6.304	-
CCNC(=O)CN(c1ccc(Cl)cc1C)S(C)(=O)=O	-	8.604
COc1ccnc(C(=O)N2CCCC(CCCO)C2)c1 (centres unmarked)	-	0.3974
CCN(CC)C(=O)CN(C)C(=O)CC(C)(C)C#N	-0.3042	-
O=C(C1CCCOC1)N1CCCc2c(F)cccc21 (centres unmarked)	49.48	-
CCN(CC)C(=O)CNc1ccc(Cl)c(C#N)n1	0.7009	-11.23
COc1ccsc1C(=O)NCCc1nc(N)no1	-	15
CN(Cc1cccc(C(N)=O)c1)C(=O)c1occc1Br	53.89	14.02
O=C(Nc1ccccc1)N(CCCO)C1CC1	25.04	-
c1ccc(N2CCCN3CCCC3C2)nc1 (centres unmarked)	-	9.653
CS(=O)(=O)N1CCCC(N)C1 (centres unmarked)	1.223	-
O=C1CCC2(CNC(=O)C3CC3)CCCC=C2N1 (centres unmarked)	63.07	-
CCC1C(=O)NCCN1C(=O)c1cnsn1 (centres unmarked)	-14.03	-
O=C1CC(CNc2ncccn2)c2ccccc2N1 (centres unmarked)	-	-1.276
O=S(=O)(Cc1ccccc1C(F)(F)F)CC(O)CO (centres unmarked)	1.153	-
NCCC1CN(Cc2ccccc2)CCO1 (centres unmarked)	23.45	8.422
CCS(=O)(=O)NCCOc1ccc2c(c1)OCO2	60.4	54.58
CN(C)c1cccc(C(=O)NCCc2ncnn2C)c1	17.18	-
COC(CN)C1CC1 (centres unmarked)	-	-5.229
CN(C)CCCNS(=O)(=O)Cc1ccccc1F	-5.108	-

For reference, 10 entries once more:

SMILES,Mtb glucose medium,Mtb cholesterol medium
CN(C)c1nccc(N(C)CCn2cccn2)n1,2.626,-
CCNC(=O)CNC(=O)C(C)(O)CCc1ccccc1 (centres unmarked),28.73,-
CN(Cc1cccc(C(N)=O)c1)C(=O)c1occc1Br,53.89,14.02
CN(CCCS(=O)(=O)N(C)C)Cc1nc(C2CC2)no1,35.34,-
CCC1C(=O)NCCN1C(=O)c1cnsn1 (centres unmarked),-14.03,-
COCC(C)NC(=O)NCc1ccc(F)cc1 (centres unmarked),19.02,-
Cc1cc(CNC(=O)CSc2ccncc2)on1,8.87,-
CCN(CC)C(=O)CN(C)C(=O)CC(C)(C)C#N,-0.3042,-
Cc1ccc(C2CCCN2S(=O)(=O)N2CCOCC2)o1 (centres unmarked),-,-25.89
CC(Cn1cccn1)NC(=O)CN1CCOC1=O (centres unmarked),-14.51,-